Earlier results as cited in patent US20040003429A1, “Pest control system” (priority 2000, published 2004).

Tested on: adult boll weevil Anthonomus granids Boheman
Conditions: cited from earlier work

COP(=O)(NC(C)=O)SC (stereo not shown) [Acephate, O, S dimethyl acetylphosphoramidothicate]
metabolism of acephate to methamidophos: No metabolism
